Data as given in PubChem BioAssay AID1224833 (University of Georgia, 2016)
Test: 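Human genes whose knock-down alters rotavirus replication in monkey cells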 (primary screen). Cells: monkey MA104 kidney cells. Knock-down reagent: siRNA pool against human genes, 50 nM. Time to read-out: 48 h knock-down before infection; read 24 h after infection. Conditions: infection with rotavirus strain RV3 two days after transfection; infectious dose for this stage not given. Measurement: 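z-score of rotavirus antigen signal per well, from a fluorescent immunoassay, relative to non-targeting control wells on the same plate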. Direction: z-score vs non-targeting control: higher = more rotavirus replication than with non-targeting control. Hit rule: In these data the active calls have z-score vs non-targeting control at about -1 or lower, or at about 1 or higher. Calls: active = z-score beyond 1 either way; inactive = z-score within 1 of zero.
Here is a random part of about 12,000 reagents tested. Of all reagents, about 5,600 (46%) are marked active. 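Active calls cover z-scores past 1 in both directions, so they include lowered as well as raised rotavirus replication.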

For PCDH17 (protocadherin 17), how do the results read?
z-score vs non-targeting control: -1.77; call: active

How did the screen score ZNF441 (zinc finger protein 441)?
z-score vs non-targeting control: 0.352; call: inactive

How did the screen score RUNDC3A (RUN domain containing 3A)?
z-score vs non-targeting control: 0.231; call: inactive

Which result is listed for PAGE4 (PAGE family member 4)?
z-score vs non-targeting control: -0.436; call: inactive

For FOXI2 (forkhead box I2), what does the deposit list?
z-score vs non-targeting control: 2.94; call: active

What is on record for NECAB1 (N-terminal EF-hand calcium binding protein 1)?
z-score vs non-targeting control: 2.77; call: active

Which result is listed for NPHP4 (nephrocystin 4)?
z-score vs non-targeting control: -0.47; call: inactive

With NHLH2 (nescient helix-loop-helix 2), what does the deposit list?
z-score vs non-targeting control: 0.608; call: inactive

How did the screen score KASH5 (KASH domain containing 5)?
z-score vs non-targeting control: -1.05; call: active

With PDS5A (PDS5 cohesin associated factor A), what does the deposit list?
z-score vs non-targeting control: -1.31; call: active

For CIAO3 (cytosolic iron-sulfur assembly component 3), how do the results read?
z-score vs non-targeting control: -0.677; call: inactive

With CDH8 (cadherin 8), what was measured?
z-score vs non-targeting control: -1.49; call: active

How did the screen score MOV10 (Mov10 RNA helicase)?
z-score vs non-targeting control: -0.662; call: inactive

What did the screen give for NDUFA13 (NADH:ubiquinone oxidoreductase subunit A13)?
z-score vs non-targeting control: 0.855; call: inactive

With C3orf70 (chromosome 3 open reading frame 70), what was measured?
z-score vs non-targeting control: -1.79; call: active

For DLX4 (distal-less homeobox 4), how do the results read?
z-score vs non-targeting control: -0.525; call: inactive

How did the screen score LRAT (lecithin retinol acyltransferase)?
z-score vs non-targeting control: 1.06; call: active

What did the screen give for CNPPD1 (cyclin Pas1/PHO80 domain containing 1)?
z-score vs non-targeting control: -1.24; call: active

With VIPR1 (vasoactive intestinal peptide receptor 1), how do the results read?
z-score vs non-targeting control: -1.16; call: active

What did the screen give for LRRC8D (leucine rich repeat containing 8 VRAC subunit D)?
z-score vs non-targeting control: 0.31; call: inactive

What did the screen give for MARVELD3 (MARVEL domain containing 3)?
z-score vs non-targeting control: 1.15; call: active

5 of these entries, set out differently:
gene knocked down	z-score vs non-targeting control	call
PDS5A (PDS5 cohesin associated factor A)	-1.31	active
CIAO3 (cytosolic iron-sulfur assembly component 3)	-0.677	inactive
CDH8 (cadherin 8)	-1.49	active
MOV10 (Mov10 RNA helicase)	-0.662	inactive
NDUFA13 (NADH:ubiquinone oxidoreductase subunit A13)	0.855	inactive

Further entries follow.
With ANKLE1 (ankyrin repeat and LEM domain containing 1), how do the results read?
z-score vs non-targeting control: 0.819; call: inactive

For TP53RK (TP53 regulating kinase), what does the deposit list?
z-score vs non-targeting control: 0.689; call: inactive

For ZBTB20 (zinc finger and BTB domain containing 20), what was measured?
z-score vs non-targeting control: -0.165; call: inactive

What is on record for RBM23 (RNA binding motif protein 23)?
z-score vs non-targeting control: -0.29; call: inactive

What did the screen give for HAGH (hydroxyacylglutathione hydrolase)?
z-score vs non-targeting control: -1.54; call: active

Which result is listed for WNT1 (Wnt family member 1)?
z-score vs non-targeting control: 0.258; call: inactive

What is on record for AIFM2 (AIF family member 2, ferroptosis suppressor)?
z-score vs non-targeting control: -1.93; call: active

For BCAS3 (BCAS3 microtubule associated cell migration factor), how do the results read?
z-score vs non-targeting control: -0.209; call: inactive

With RERGL (RERG like), what does the deposit list?
z-score vs non-targeting control: -0.532; call: inactive

With PPP1R3B (protein phosphatase 1 regulatory subunit 3B), what was measured?
z-score vs non-targeting control: -1.32; call: active

What is on record for CASP7 (caspase 7)?
z-score vs non-targeting control: 1.52; call: active

What did the screen give for PDSS1 (decaprenyl diphosphate synthase subunit 1)?
z-score vs non-targeting control: -1.17; call: active

With MSANTD3 (Myb/SANT DNA binding domain containing 3), how do the results read?
z-score vs non-targeting control: -1.32; call: active

How did the screen score TFG (trafficking from ER to golgi regulator)?
z-score vs non-targeting control: -2.36; call: active

How did the screen score HSP90AB1 (heat shock protein 90 alpha family class B member 1)?
z-score vs non-targeting control: 0.868; call: inactive

Which result is listed for PLCB2 (phospholipase C beta 2)?
z-score vs non-targeting control: 0.842; call: inactive

With OR10J5 (olfactory receptor family 10 subfamily J member 5), what does the deposit list?
z-score vs non-targeting control: -1.72; call: active

For KLHL36 (kelch like family member 36), what was measured?
z-score vs non-targeting control: 0.294; call: inactive

With P3H4 (prolyl 3-hydroxylase family member 4 (inactive)), what was measured?
z-score vs non-targeting control: -2.21; call: active

What is on record for CAPZA2 (capping actin protein of muscle Z-line subunit alpha 2)?
z-score vs non-targeting control: -0.277; call: inactive

How did the screen score ZPLD1 (zona pellucida like domain containing 1)?
z-score vs non-targeting control: -1.25; call: active

With XIRP1 (xin actin binding repeat containing 1), what does the deposit list?
z-score vs non-targeting control: -0.983; call: inactive

Which result is listed for SPON1 (spondin 1)?
z-score vs non-targeting control: 0.242; call: inactive

For HNRNPDL (heterogeneous nuclear ribonucleoprotein D like), what does the deposit list?
z-score vs non-targeting control: 0.156; call: inactive

What is on record for FOXJ3 (forkhead box J3)?
z-score vs non-targeting control: -1.32; call: active

With AIMP2, what does the deposit list?
z-score vs non-targeting control: -0.959; call: inactive
